From patent publication US7642280B2, “Inhibitors of acyl glucosaminyl inositol amidase and methods of use” (The Regents of the University of California, priority 2001, dated 2010)

Protein sequences, listed by entry. Tags and fused reporters are not part of them.
UniProt P9WJN1, whole entry: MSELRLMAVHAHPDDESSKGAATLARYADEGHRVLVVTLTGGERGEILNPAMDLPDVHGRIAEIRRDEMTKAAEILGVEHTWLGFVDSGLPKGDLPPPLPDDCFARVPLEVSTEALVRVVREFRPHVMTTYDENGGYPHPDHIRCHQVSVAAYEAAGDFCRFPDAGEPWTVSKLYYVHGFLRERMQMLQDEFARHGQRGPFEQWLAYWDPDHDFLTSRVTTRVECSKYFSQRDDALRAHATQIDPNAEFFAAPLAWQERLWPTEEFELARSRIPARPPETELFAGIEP

Target: M. tuberculosis MCA (Mycobacterium tuberculosis, UniProt P9WJN1)
Test: Fluorescence-based HPLC IC50 assay, recombinant M. tuberculosis MCA with synthetic MSmB
Details: read-out: IC50 M. tb; recombinant M. tuberculosis MCA approx. 20 nM, 30 μM synthetic MSmB, 20 min, 31° C.

| SMILES | IC50 |
| --- | --- |
| N=C(N)NCCCCNC(=O)C(Cc1cc(Br)c(OCCCN)c(Br)c1)=NO | 10 µM |
| NCCCOc1c(Br)cc(CC(=NO)C(=O)NCCc2cnc(N)[nH]2)cc1Br | 30 µM |
